In paper PMC13218499:

Target: T1, LsrR WT (Salmonella Typhimurium 14028s) (UniProt Q8ZKQ5)
T1 sequence (looked up): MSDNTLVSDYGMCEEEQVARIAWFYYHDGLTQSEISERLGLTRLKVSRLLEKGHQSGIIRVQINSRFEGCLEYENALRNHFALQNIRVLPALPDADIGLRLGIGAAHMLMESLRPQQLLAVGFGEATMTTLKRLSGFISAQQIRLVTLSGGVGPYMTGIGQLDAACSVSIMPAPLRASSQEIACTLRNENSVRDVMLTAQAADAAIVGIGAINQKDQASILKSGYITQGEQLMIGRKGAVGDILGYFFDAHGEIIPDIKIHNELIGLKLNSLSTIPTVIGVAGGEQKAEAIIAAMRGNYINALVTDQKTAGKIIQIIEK
Test: EMSA
Settings: 50 mM Tris-Cl pH 7.5, 150 mM NaCl, 3 mM Mg acetate, 0.1 mM EDTA, 0.1 mM DTT, 15 min room temperature, 6% native PAGE, SYBR Gold, recombinant protein, residues 1-319, protein details: C-terminal 6xHis, label: none (SYBR Gold stain)

## AAGAGGGTGACTATTTGTCTGGTTTATTAACTGTTTATCCCCAAAGCACCATAATCAACGCTAGACTGTTCTTATTGTTAACACAAGGGA (double strand) [phoP promoter ds 90 bp]
  binding result: binds

## AAGAGGGTGACTATTTGTCTGGTTTATTAACTGTTTATCCCCAAAGCACCATAATCAACGCTAGACTGTTCTTATTGTTAACACAAGGGA [phoP promoter ss 90 nt]
single-stranded DNA
  binding result: binds

## GACCAAATAACTACTACCGTTTTGAACAATTTCTTTTTCAAAAAACATTTGTTCAGTCCCGTCAGTCAACATTGAGGGAGCGGAGGCAAC (double strand) [lsr promoter ds 90 bp]
  binding result: binds

## GACCAAATAACTACTACCGTTTTGAACAATTTCTTTTTCAAAAAACATTTGTTCAGTCCCGTCAGTCAACATTGAGGGAGCGGAGGCAAC [lsr promoter ss 90 nt]
single-stranded DNA
  binding result: binds

The exact form of at least one protein or probe is not confirmed. Where a protein sequence is shown, tags need not be part of it.
